We go through one substance from US20240197701A1, “ANDROGEN RECEPTOR INHIBITION TO TREAT SEPSIS AND SHOCK” (priority 2021, published 2024).

In the data set the test system is COVID-19. The experiment in a line: Randomized, double-blind, placebo-controlled trial of proxalutamide in hospitalized COVID-19 patients (NCT04728802). To be noted: among males taking proxalutamide.

With proxalutamide, the Spontaneous erection is listed as 2.2%.
